{"sequences": {"note": "Amino acid sequences for entries named in this document (tags omitted). A change or cut given only in a name is not applied to a line headed by its entry.", "UniProt Q9KQH5": "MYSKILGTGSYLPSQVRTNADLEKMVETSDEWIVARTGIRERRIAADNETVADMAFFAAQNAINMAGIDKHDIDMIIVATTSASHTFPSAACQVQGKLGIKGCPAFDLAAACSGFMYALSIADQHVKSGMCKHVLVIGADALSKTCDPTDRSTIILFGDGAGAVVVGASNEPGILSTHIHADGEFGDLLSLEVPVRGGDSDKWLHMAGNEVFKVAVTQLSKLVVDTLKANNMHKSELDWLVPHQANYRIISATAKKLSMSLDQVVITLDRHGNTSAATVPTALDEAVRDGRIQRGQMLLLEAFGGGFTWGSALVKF"}, "source": "paper PMC6105497", "about": "(The FEBS journal, 2018)", "target": "vcFabH1 (Vibrio cholerae serotype O1, UniProt Q9KQH5)", "format": "biochemical"}
{"smiles": "CCC(=O)SCCNC(=O)CCNC(=O)[C@H](O)C(C)(C)COP(=O)(O)OP(=O)(O)OC[C@H]1O[C@@H](n2cnc3c(N)ncnc32)[C@H](O)[C@@H]1OP(=O)(O)O", "note": "[propionyl-CoA]", "values": [{"measurement": "Substrate utilization by vcFabH1 (in words)", "result": "more efficiently than acetyl-CoA"}]}
